Pooled drug test results. Numbers come from NIAID ChemDB, via PubChem.

Common to all: tests in culture; organism: Hepatitis B virus; measure: EC50

ECn is the concentration giving n% inhibition of infection, replication or growth. An empty or dashed field is not shown. Conditions beyond the fields shown may differ between rows. a–b is a range or a potency band.

compound,method,changes,cell line,setting,strain,value
CNC(=O)c1ccc(-n2c(=O)c3c(n4ncc(Cc5ccc(OC)cc5)c24)CN(C(=O)c2ccc(Br)c(Cl)c2)CC3)cc1,PCR,,HepG2.117,3 d,,<0.1 µM
C[C@@H](NC(=O)c1c2n(c(=O)n1-c1ccc(OCC(F)(F)F)cc1)CCN(C(=O)c1ccc(Br)c(Cl)c1)C2)c1ccc(OC(F)(F)F)cc1F,PCR,,HepG2.117,,,0.5–5 µM
Cc1c(C(=O)C(=O)NC2(C#C[C@H](C)O)COC2)c(C)n(C)c1C(=O)Nc1ccc(F)c(C#N)c1,PCR,,HepG2.2.15,,,0.001–0.0099 µM
Cn1cc(S(=O)(=O)N[C@@H]2CCN(C(=O)C(=O)NC3CC3)C2)c(F)c1C(=O)Nc1ccc(F)c(F)c1,PCR,,HepAD38 cells,,,<0.1 µM
Cn1nc2cc(NS(=O)(=O)c3cnn(CCS(C)(=O)=O)c3)ccc2c1C(=O)Nc1ccc(F)c(Cl)c1,PCR,,HepAD38,,,100–1000 µM
C#CC1(NC(=O)C(=O)c2c(C)c(C(=O)Nc3ccc(F)c(C#N)c3)n(C)c2C)CCS(=O)(=O)CC1,PCR,,HepG2.2.15,,,0.001–0.0099 µM
Cc1cc(NC(=O)c2c3c(cn2C)S(=O)(=O)N[C@H]2CN(C(=O)C(=O)NCC(F)(F)F)C[C@H]2CS3)ccc1F,PCR,,HepAD38,,,<0.5 µM
O=C(c1ccc(Br)c(Cl)c1)N1CCc2c(n3ncc(Cc4ccccc4)c3n(-c3ccc(-n4cccn4)cc3)c2=O)C1,luminescence,,HepG2.117,,,≤0.05 µM
Cc1nnc(C(=O)N2CCC3(COc4c(cn(C)c4C(=O)Nc4ccc(F)c(F)c4)S(=O)(=O)N3)C2)o1,PCR,,HepAD38,,Genotype D,<0.5 µM
Cc1c(C(=O)C(=O)NC(C)(C)c2cn[nH]c2)c(C)n(C)c1C(=O)Nc1ccc(F)c(C#N)c1,PCR,,HepG2.2.15,,,0.001–0.0099 µM
C[C@@H]1Cc2c(n3ncc(CC4CCC4)c3n(-c3ccc(-c4nncn4C)cc3)c2=O)CN1C(=O)c1ccc(Cl)c(C(F)(F)F)c1,luminescence,,HepG2.117,,,≤0.05 µM
Cn1cc2c(c1C(=O)Nc1ccc(F)c(Cl)c1)OC[C@@]1(CCN(C(=O)C(=O)NC(C)(C)C(F)(F)F)C1)NS2(=O)=O,PCR,,HepAD38,,Genotype D,<0.5 µM
O=C(c1ccc(Br)c(Cl)c1)N1CCS(=O)(=O)[C@@](F)(c2ncc(Cc3ccccc3)o2)C1,PCR,,HepG2.117,,,<0.1 µM
CC[C@@H](NC(=O)c1c2n(c(=O)n1-c1ccc(OC)cc1)CCN(C(=O)c1ccc(Br)c(Cl)c1)C2)c1ccccc1,PCR,,HepG2.117,,,0.1–0.5 µM
C[C@@H](NC(=O)C(=O)N1CC[C@]2(COc3c(cn(C)c3C(=O)Nc3ccc(F)c(C(F)F)c3)S(=O)(=O)N2)C1)C(F)(F)F,PCR,,HepAD38,,Genotype D,<0.5 µM
Cn1nc2cc(S(=O)(=O)NCc3ccccc3)ccc2c1C(=O)Nc1ccc(F)c(Cl)c1,PCR,,HepAD38,,,100–1000 µM
CNS(=O)(=O)N1CC[C@@H](NS(=O)(=O)c2c(F)c(C(=O)Nc3ccc(F)c(F)c3)n(C)c2Br)C1,PCR,,HepAD38 cells,,,<0.1 µM
CNC(=O)c1ccc(-n2c(=O)c3c(n4ncc(NCc5ccc(F)cc5)c24)CN(C(=O)c2ccc(Br)c(Cl)c2)CC3)cc1,PCR,,HepG2.117,3 d,,<0.1 µM
Cc1cc(NC(=O)c2c3c(cn2C)S(=O)(=O)NC2CCN(C(=O)C(=O)NC(C)(C)C(F)(F)F)CC2CO3)ccc1F,PCR,,HepAD38,,,<0.5 µM
O=C(NCc1ccccc1)c1c2n(c(=O)n1-c1ccc3[nH]ccc3c1)CCN(C(=O)c1ccc(Br)c(Cl)c1)C2,PCR,,HepG2.117,,,0.1–0.5 µM
CN1[C@H](C(=O)Nc2ccc(F)c(Cl)c2)C[C@H](c2ncc(-c3cn(C)cn3)s2)NS1(=O)=O,ELISA / antigen,,PHH,,Genotype D,0.204 µM
Cc1cc(NC(=O)c2c3c(cn2C)S(=O)(=O)N[C@H]2CN(C(=O)C(=O)N[C@H](C)C(F)(F)F)C[C@H]2CO3)ccc1F,PCR,I105T,HepG2,,,0.00322 µM
COc1ccc([C@H](C)NC(=O)c2c3n(c(=O)n2-c2ccc(OC4CC4)cc2)CCN(C(=O)c2ccc(Br)c(Cl)c2)C3)cc1,PCR,,HepG2.117,,,0.1–0.5 µM
Cn1nc2cc(NS(=O)(=O)C3CC(O)C3)ccc2c1C(=O)Nc1ccc(F)c(Cl)c1,PCR,,HepAD38,,,100–1000 µM
C#CC1(NC(=O)C(=O)c2c(C)c(C(=O)Nc3ccnc(F)c3Br)n(C)c2C)CC(F)(F)C1,PCR,,HepG2.2.15,,,0.001–0.0099 µM
COc1ccc(-n2c(C(=O)NCc3ccc4oc(C)nc4c3)c3n(c2=O)CCN(C(=O)c2ccc(Cl)c(Cl)c2)C3)cc1,PCR,,HepG2.117,,,0.5–5 µM
C[C@H]1Cc2c(n3ncc(Cc4ccccc4)c3n(-c3ccc(-c4nn(C)c(=O)[nH]4)cc3)c2=O)CN1C(=O)c1ccc(Br)c(C(F)(F)F)c1,luminescence,,HepG2.117,,,0.05–0.5 µM
Cc1cc(NC(=O)c2c3c(cn2C)S(=O)(=O)NC2CN(C(=O)C(=O)N[C@H](C)C(F)(F)F)CCC2CO3)ccc1F,PCR,,HepAD38,,,<0.5 µM
Cn1nc2cc(NCS(=O)(=O)N(CC3CC3)C3CC3)ccc2c1C(=O)Nc1ccc(F)c(Cl)c1,PCR,,HepAD38,,,100–1000 µM
C[C@@H](NC(=O)c1c2n(c(=O)n1-c1ccc(OCC(F)(F)F)cc1)CCN(C(=O)c1ccc(Br)c(Cl)c1)C2)c1ccc(OC2COC2)cc1F,PCR,,HepG2.117,,,0.5–5 µM
Cn1nc2cc(NCS(=O)(=O)N(CCO)CCO)ccc2c1C(=O)Nc1ccc(F)c(Cl)c1,PCR,,HepAD38,,,100–1000 µM
COc1ccc(-n2c(=O)c3c(n4ncc(Cc5ccccc5)c24)CN(C(=O)c2ccc(Cl)c(Cl)c2)CC3)cc1,PCR,,HepG2.117,3 d,,0.1–0.5 µM
Cn1nc2cc(NS(=O)(=O)c3cnn(CCO)c3)ccc2c1C(=O)Nc1ccc(F)c(Cl)c1,PCR,,HepAD38,,,100–1000 µM
Cc1c(C(=O)C(=O)NC(C)(C)c2cnc[nH]2)c(C)n(C)c1C(=O)Nc1ccc(F)c(C(F)(F)F)c1,PCR,,HepG2.2.15,,,0.001–0.0099 µM
Cc1cc(NC(=O)c2c3c(cn2C)S(=O)(=O)N[C@H]2CN(C(=O)C(=O)NC4CC(F)(F)C4)C[C@H]2CS3)ccc1F,PCR,,HepAD38,,,<0.5 µM
Cn1cc2c(c1C(=O)Nc1ccc(F)c(C(F)F)c1)OCC1(CN(C(=O)C(=O)NC3CC3)C1)NS2(=O)=O,PCR,,HepAD38,,Genotype D,<0.5 µM
CN1Cc2cc(-n3c(=O)c4c(n5ncc(Cc6ccccc6)c35)CN(C(=O)c3ccc(Br)c(Cl)c3)CC4)ccc2C1=O,luminescence,,HepG2.117,,,≤0.05 µM
COCCCS(=O)(=O)N1CC[C@@H](NS(=O)(=O)c2cn(C)c(C(=O)Nc3ccc(F)c(F)c3)c2F)C1,PCR,,HepAD38 cells,,,<0.1 µM
Cn1nc2cc(NS(=O)(=O)c3cnn(-c4ccccc4)c3)ccc2c1C(=O)Nc1ccc(F)c(Cl)c1,PCR,,HepAD38,,,100–1000 µM
CNc1n[nH]c2cc(-n3c(=O)c4c(n5ncc(CC(C)C)c35)CN(C(=O)c3ccc(Br)c(C(F)(F)F)c3)[C@H](C)C4)ccc12,luminescence,,HepG2.117,,,≤0.05 µM
CCNC(=O)C(=O)N1CC[C@@H](NS(=O)(=O)c2cn(C)c(C(=O)Nc3ccc(F)c(F)c3)c2F)C(F)(F)C1,PCR,,HepAD38 cells,,,<0.1 µM
CNOCc1ccc(-n2c(=O)c3c(n4ncc(CC5CCCC5)c24)CN(C(=O)c2ccc(Br)c(Cl)c2)CC3)cc1,luminescence,,HepG2.117,,,≤0.05 µM
C[C@H]1CS(=O)(=O)[C@H](c2cccs2)CN1C(=O)Nc1ccc(F)c(Cl)c1,PCR,,HepG2.117,,,0.5–5 µM
Cc1nc(-c2ccc(-n3c(=O)c4c(n5ncc(Cc6ccccc6)c35)CN(C(=O)c3ccc(Br)c(Cl)c3)CC4)cc2)n[nH]1,luminescence,,HepG2.117,,,≤0.05 µM
C[C@@H](NC(=O)C(=O)N1CC2(COc3c(c(Cl)n(C)c3C(=O)Nc3ccc(F)c(C(F)F)c3)S(=O)(=O)N2)C1)C(F)(F)F,PCR,,HepAD38,,Genotype D,<0.5 µM
Cn1nc2cc(N(CC#N)S(=O)(=O)NC3CC3)ccc2c1C(=O)Nc1ccc(F)c(Cl)c1,PCR,,HepAD38,,,>1000 µM
Cc1cc(NC(=O)c2c3c(cn2C)S(=O)(=O)N[C@H]2CN(C(=O)C(=O)NCC4CC4)C[C@H]2CO3)ccc1F,PCR,,HepAD38,,,<0.5 µM
Cn1cc(S(=O)(=O)Nc2ncc3c(C(=O)Nc4ccc(F)c(Cl)c4)n(C)nc3n2)cn1,PCR,,HepAD38,,,>1000 µM
Cc1c(C(=O)C(=O)NC(C)(C)c2ccc3nc[nH]c3c2)c(C)n(C)c1C(=O)Nc1ccc(F)c(C#N)c1,PCR,,HepG2.2.15,,,0.001–0.0099 µM
CNc1n[nH]c2cc(-n3c(=O)c4c(n5ncc(Cc6ccccc6)c35)CN(C(=O)c3ccc(Br)c(C(F)(F)F)c3)[C@H](C)C4)ccc12,luminescence,,HepG2.117,,,≤0.05 µM
CNC(=O)c1ccc(-n2c(=O)c3c(n4ncc(N[C@H](C)c5ccccc5)c24)CN(C(=O)c2ccc(Br)c(Cl)c2)CC3)cc1,PCR,,HepG2.117,3 d,,0.1–0.5 µM
Cc1cc(NC(=O)c2c3c(cn2C)S(=O)(=O)NC2CN(C(=O)C(=O)N4CC(F)(F)C4)CCC2CO3)ccc1F,PCR,,HepAD38,,,<0.5 µM
COc1ccc(CNC(=O)c2c3n(c(=O)n2-c2ccccc2)CCN(C(=O)c2ccc(Br)c(Cl)c2)C3)c(C)c1,PCR,,HepG2.117,,,0.1–0.5 µM
COc1ccc(Cc2cnc([C@]3(F)CN(C(=O)c4ccc(Br)c(Cl)c4)CCS3(=O)=O)s2)c(OC)c1,PCR,,HepG2.117,,,0.5–5 µM
C[C@@H]1Cn2c(c(C(=O)N[C@H](C)c3ccccc3F)n(-c3ccc(OC4CC4)cc3)c2=O)CN1C(=O)c1ccc(Br)c(Cl)c1,PCR,,HepG2.117,,,0.5–5 µM
CNOCc1ccc(-n2c(=O)c3c(n4ncc(Cc5ccccc5)c24)CN(C(=O)c2ccc(Br)c(C(F)(F)F)c2)CC3)cc1,luminescence,,HepG2.117,,,≤0.05 µM
N#Cc1cc(C(=O)N2CCS(=O)(=O)[C@](F)(c3ncc(Cc4ccccc4)s3)C2)ccc1Br,PCR,,HepG2.117,,,0.5–5 µM

For reference, 5 entries again:

compound	method	changes	cell line	setting	strain	value
CNC(=O)c1ccc(-n2c(=O)c3c(n4ncc(N[C@H](C)c5ccccc5)c24)CN(C(=O)c2ccc(Br)c(Cl)c2)CC3)cc1	PCR		HepG2.117	3 d		0.1–0.5 µM
Cn1nc2cc(NS(=O)(=O)c3cnn(CCO)c3)ccc2c1C(=O)Nc1ccc(F)c(Cl)c1	PCR		HepAD38			100–1000 µM
Cn1nc2cc(NCS(=O)(=O)N(CCO)CCO)ccc2c1C(=O)Nc1ccc(F)c(Cl)c1	PCR		HepAD38			100–1000 µM
C#CC1(NC(=O)C(=O)c2c(C)c(C(=O)Nc3ccc(F)c(C#N)c3)n(C)c2C)CCS(=O)(=O)CC1	PCR		HepG2.2.15			0.001–0.0099 µM
CNc1n[nH]c2cc(-n3c(=O)c4c(n5ncc(Cc6ccccc6)c35)CN(C(=O)c3ccc(Br)c(C(F)(F)F)c3)[C@H](C)C4)ccc12	luminescence		HepG2.117			≤0.05 µM